Data from patent US20240065998A1, “MONOACYLGLYCEROL AND FREE FATTY ACID-BASED COMPOSITIONS, METHODS OF MANUFACTURING AND USE OF THE SAME” (priority 2021, published 2024).

Test system: Influenza A(H1N1)pdm09 (California/07/09)
Conditions: Table 58A, 70%, 2 min, 37 ± 2° C.; VC titer 5.7

Compound: CCO [Ethanol]
- LRV: >5.0
